# Data: PMC6273394, “Discovery of a New Class of Sortase A Transpeptidase Inhibitors to Tackle Gram-Positive Pathogens: 2-(2-Phenylhydrazinylidene)alkanoic Acids and Related Derivatives” (Molecules, 2016)
# By UniProt entry, the sequences of proteins in these tests, tags left out. Residues count along the entry.
# UniProt Q2FV99, 60-206 limits assumed: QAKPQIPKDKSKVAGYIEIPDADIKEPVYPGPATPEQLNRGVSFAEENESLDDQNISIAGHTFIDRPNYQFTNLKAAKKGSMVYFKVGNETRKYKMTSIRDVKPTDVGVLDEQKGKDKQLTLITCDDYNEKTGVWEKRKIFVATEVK
# Biological target: S. aureus SrtA (Staphylococcus aureus, UniProt Q2FV99)
# Assay: Sortase A FRET enzyme activity assay (hydrolysis of dabcyl-QALPETGEE-edans)
# Type: biochemical
# Conditions: read-out: IC50 (activity as sortase A inhibitors); 10 µM S. aureus sortase A, preincubated 1 h at 37 °C, 50 µM dabcyl-QALPETGEE-edans substrate
structure (smiles),measurement,value
CCOC(=O)/C(=N\Nc1ccc(Cl)c(Cl)c1)C(=O)c1ccccc1,IC50,> 500 µM
